PubChem BioAssay AID1259414, Drosophila RNAi Screening Center | 2018

Aim: 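Genome-wide screen for host control of endosymbiont load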 (primary screen)
Cells: Drosophila JW18 cells infected with Wolbachia
Knock-down reagent: long dsRNA against Drosophila genes, 0.25 µg dsRNA per well of a 384-well plate
Time to read-out: 5 days
Conditions: cells persistently infected with Wolbachia before knock-down; no added drug
Read-out: 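Automated imaging of bacterial rRNA staining divided by host cell count, reported as plate-normalised robust z-score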
Scale: Wolbachia per cell robust z: higher = more Wolbachia per host cell than the plate typical
Call rule: 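Active if absolute robust z reaches 1.5 in two or more of three replicates, leaving out multi- or no-target dsRNAs, genes unexpressed in JW18 and A1 wells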
The deposit covers about 24,000 reagents; this is a random part of those that have a named target and a result. Of all reagents, about 1,210 (5%) were called active. 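Inactive calls also include excluded dsRNAs with several or no targets, genes unexpressed in JW18, and well A1, regardless of score.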 Names joined by + are all predicted targets of the reagent.

| target | dsRNA | Wolbachia per cell robust z, rep 1 | Wolbachia per cell robust z, rep 2 | Wolbachia per cell robust z, rep 3 | activity call |
| --- | --- | --- | --- | --- | --- |
| unc-13 | DRSC17192 | -0.944 | 0.191 | -5.46 | inactive |
| unc-13 | DRSC17193 | 0.622 | -0.205 | -1.03 | inactive |
| unc-13 | DRSC17223 | -2.04 | 1.86 | -0.497 | inactive |
| unc-13 | DRSC40770 | -2.03 | -1.57 | -0.651 | active |
| lncRNA:CR32553 (long non-coding RNA:CR32553) | DRSC19229 | -0.0386 | -5 | -1.22 | inactive |
| CG43367 | DRSC08299 | -0.597 | 0.62 | -0.292 | inactive |
| CG43367 | DRSC08301 | 0.36 | -1.7 | -0.822 | inactive |
| CG43367 | DRSC08309 | 0.00616 | -2.03 | -0.115 | inactive |
| CG43367 | DRSC24732 | 1.3 | 0.123 | 0.531 | inactive |
| ND-13A (NADH dehydrogenase (ubiquinone) 13 kDa A subunit) | DRSC03110 | -0.928 | -0.773 | -0.195 | inactive |
| ND-13A (NADH dehydrogenase (ubiquinone) 13 kDa A subunit) | DRSC29397 | -0.0262 | -0.249 | -0.68 | inactive |
| tou (toutatis) | DRSC22710 | -0.0372 | -1.23 | -0.0382 | inactive |
| tou (toutatis) | DRSC27228 | 0.25 | -0.674 | -0.0788 | inactive |
| tou (toutatis) | DRSC40748 | 0.0592 | -0.0925 | -0.277 | inactive |
| myd (mayday) | DRSC15512 | 0.991 | 0.384 | 0.246 | inactive |
| Cdk4 (Cyclin-dependent kinase 4) | DRSC07358 | 0.565 | 0.362 | 0.272 | inactive |
| Cdk4 (Cyclin-dependent kinase 4) | DRSC27263 | 1.62 | 0.858 | 0.977 | inactive |
| Dpm3 (Dolichyl-phosphate mannosyltransferase subunit 3) | DRSC37866 | 0.309 | -0.983 | -1.43 | inactive |
| Iswi (Imitation SWI) | DRSC07446 | 0.806 | 0.586 | 0.954 | inactive |
| Iswi (Imitation SWI) | DRSC26047 | 0.836 | 0.743 | 0.374 | inactive |
| CG13305 | DRSC24957 | -0.127 | 0.52 | 0.821 | inactive |
| Ythdf (YTH N6-methyladenosine RNA binding protein) | DRSC16036 | 1.03 | 0.457 | -0.448 | inactive |
| Ythdf (YTH N6-methyladenosine RNA binding protein) | DRSC16037 | 0.879 | -2.76 | -0.449 | inactive |
| CecA2 (Cecropin A2) | DRSC16604 | -0.519 | -0.716 | -0.969 | inactive |
| Mad | DRSC00759 | -5.1 | -0.418 | 0.791 | inactive |
| Mad | DRSC40863 | 0.892 | -0.672 | 0.0543 | inactive |
| S (Star) | DRSC24973 | 0.499 | 0.302 | 0.443 | inactive |
| S (Star) | DRSC40865 | 0.916 | 0.643 | 1.05 | inactive |
| CG18622 | DRSC15360 | -1.69 | -0.00507 | -1.84 | inactive |
| CG5863 | DRSC15898 | -3.34 | 0.607 | -1.84 | inactive |
| fdl (fused lobes) | DRSC07279 | 1.62 | 0.087 | 0.374 | inactive |
| fdl (fused lobes) | DRSC26852 | -0.209 | 0.239 | -0.0557 | inactive |
| SkpD (SKP1-related D) | DRSC22208 | 0.217 | 0.596 | 0.925 | inactive |
| Tssk (Testis-specific serine/threonine kinase) | DRSC14784 | 0.579 | -0.0112 | 0.861 | inactive |
| Tssk (Testis-specific serine/threonine kinase) | DRSC26679 | 0.685 | 0.449 | -0.000801 | inactive |
| Tssk (Testis-specific serine/threonine kinase) | DRSC41614 | 0.581 | -0.336 | 0.275 | inactive |
| CG14696 | DRSC14919 | 0.423 | -1.95 | 1.46 | inactive |
| Dnaaf5 (Dynein axonemal assembly factor 5) | DRSC13032 | -2.14 | -0.767 | 0.771 | inactive |
| CG32053 | DRSC10683 | 0.722 | -0.781 | 0.261 | inactive |
| Cyp304a1 (Cytochrome P450 304a1) | DRSC16623 | -2.8 | -0.466 | -1.55 | active |
| CG13599 | DRSC14602 | -2.71 | 0.279 | -0.762 | inactive |
| CG13713 | DRSC08322 | -0.0519 | 0.285 | -0.397 | inactive |
| CSN6 (COP9 signalosome subunit 6) | DRSC16593 | -1.16 | -1.29 | 1.08 | inactive |
| CR41243 (pseudo) | DRSC37741 | -0.976 | -2.83 | -0.531 | inactive |
| CG1463 | DRSC19603 | -1.61 | -0.559 | 0.846 | inactive |
| Met75Ca + Met75Cb | DRSC09549 | -0.514 | -10.2 | -0.685 | inactive |
| Met75Ca + Met75Cb | DRSC11221 | 0.729 | 0.713 | 0.422 | inactive |
| CR43361 (pseudo) | DRSC17206 | 0.462 | -0.16 | -0.125 | inactive |
| CR43361 (pseudo) | DRSC23926 | 1.63 | 1.39 | 1.07 | inactive |
| elav (embryonic lethal abnormal vision) | DRSC18772 | -0.011 | -3.26 | -0.449 | inactive |
| SMC6 (Structural maintenance of chromosomes 6) | DRSC15829 | -0.278 | -1.74 | -1.09 | inactive |
| SMC6 (Structural maintenance of chromosomes 6) | DRSC25997 | 0.0617 | 0.792 | -0.166 | inactive |
| CG2076 | DRSC19832 | 0.276 | -1.79 | -5.77 | inactive |
| CG2076 | DRSC27047 | -1.97 | 0.492 | 1.23 | inactive |
| yellow-f2 | DRSC16372 | -1.22 | -0.929 | 0.396 | inactive |
| yellow-f2 | DRSC26523 | -1.48 | 0.255 | -1.72 | inactive |
| CG4770 | DRSC15639 | 0.138 | 1.56 | -4.15 | inactive |
| Acp53C14a (Accessory gland protein 53C14a) | DRSC07224 | -0.951 | 0.707 | 0.0335 | inactive |
| vari (varicose) | DRSC03202 | 0.736 | -4.86 | -0.161 | inactive |
| CG13071 | DRSC09954 | -0.928 | 0.455 | 0.811 | inactive |
| CG30108 + CG30109 | DRSC05674 | -1.64 | -2.81 | -0.56 | inactive |
| CG11378 | DRSC18627 | -0.128 | 0.181 | 0.309 | inactive |
| CG11378 | DRSC29720 | 0.341 | 0.672 | 0.54 | inactive |
| Pdf (Pigment-dispersing factor) | DRSC16786 | 0.288 | 0.339 | 0.957 | inactive |
| CG15144 | DRSC02445 | -2.65 | -3.54 | 1.47 | inactive |
| CG15144 | DRSC27073 | 0.154 | -0.637 | -0.202 | inactive |
| CG3505 | DRSC15489 | 0.404 | 0.807 | 1.41 | inactive |
| sau (sauron) | DRSC00694 | 0.446 | 2 | -0.322 | inactive |
| CG10026 | DRSC02010 | -1.65 | -1.13 | -0.46 | inactive |
| CG44249 + Snp | DRSC21538 | 0.934 | 0.498 | -1.19 | inactive |
| Mal-A5 (Maltase A5) | DRSC07232 | 0.434 | -0.578 | -1.19 | inactive |
| Mal-A5 (Maltase A5) | DRSC29506 | 0.193 | -1.94 | -0.663 | inactive |
| RpL10Ab (Ribosomal protein L10Ab) | DRSC10798 | 1.85 | 2.86 | 2.7 | active |
| RpL10Ab (Ribosomal protein L10Ab) | DRSC26988 | 1.77 | 3.18 | 4.77 | active |
| CG42566 | DRSC03949 | 0.47 | 0.587 | 0.172 | inactive |
| Neurl4 (Neuralized E3 ubiquitin protein ligase 4) | DRSC10638 | 0.0967 | 0.275 | 0.685 | inactive |
| CG42681 | DRSC41375 | -1.62 | 0.777 | 0.367 | inactive |
| ClpX (Caseinolytic protease chaperone subunit) | DRSC15592 | 0.688 | 0.477 | 1.58 | inactive |
| HLH4C (Helix loop helix protein 4C) | DRSC18670 | -0.413 | 0.52 | -2.08 | inactive |
| HLH4C (Helix loop helix protein 4C) | DRSC21322 | 0.859 | 0.89 | 1.07 | inactive |
| HLH4C (Helix loop helix protein 4C) | DRSC25228 | -0.571 | -1.71 | -0.275 | inactive |
| CG11696 | DRSC19417 | -0.0729 | -1.44 | 0.222 | inactive |
| CG42464 | DRSC40647 | 0.31 | -2.02 | -1.58 | inactive |
| Nin (Ninein) | DRSC02007 | -0.612 | -1.6 | -0.0449 | inactive |
| Unr (Upstream of N-ras) | DRSC10761 | 0.265 | -1.02 | 0.828 | inactive |
| Unr (Upstream of N-ras) | DRSC22959 | 0.656 | 1.13 | -0.236 | inactive |
| Unr (Upstream of N-ras) | DRSC25400 | -1.25 | 1.21 | 0.829 | inactive |
| Unr (Upstream of N-ras) | DRSC26920 | -2.56 | -0.757 | -1.77 | active |

Only “Wolbachia per cell robust z, rep 3”, for 6 of the entries above:
vari (varicose) [DRSC03202]	-0.161
CG13071 [DRSC09954]	0.811
CG30108 + CG30109 [DRSC05674]	-0.56
CG11378 [DRSC18627]	0.309
CG11378 [DRSC29720]	0.54
Pdf (Pigment-dispersing factor) [DRSC16786]	0.957
